Results taken from the supplement of paper PMC4206467.
Only a part is listed here, and it is no random draw.

System: Perkinsus marinus PRA240
Test: ATP content (proliferation) relative to DMSO control; higher = more parasite growth (less inhibition)
Conditions: 20 µM; 4 days
Method: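 Perkinsus marinus PRA240 trophozoites (2-5x10^6 cells/ml, 100 µl, 96-well) were exposed once to MMV Malaria Box compounds at 20 µM (0.1% DMSO) in triplicate. ATP content (ATPlite bioluminescence) was read at day 4 post-exposure and normalised to DMSO + cells control wells (100% activity). Compounds were identified by joining plate and well to the Malaria Box list.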

Row | Structure (SMILES) | ATP content
1 | c1ccc2c(NCCCCCCNc3c4c(nc5ccccc35)CCCC4)c3c(nc2c1)CCCC3 | 162%
